Pooled drug test results. Numbers come from NIAID ChemDB, via PubChem.

Common to all: whole-cell or culture tests; species: HIV-1

ECn is the concentration giving n% inhibition of infection, replication or growth. Rows are shuffled and stem from different studies. Blank or dashed fields: not listed here.

smiles	mutations	strain	measure	read by	cell line	result
O=c1ccn([C@H]2C=C[C@@H](CO)O2)c(=O)[nH]1	-	LAV	EC50	RT activity	PBMC	79.2 µM
COC(=O)[C@H](CCCCN)NP(=O)(OC[C@H]1C=C[C@@H](n2cnc3c(N)ncnc32)C1)Oc1ccccc1	-	IIIB	EC50	syncytia	CEM	25 µM
C=C(C)[C@]12C[C@@H](C)[C@@]34OC5(CCCCCCC[C@H](C)[C@H]6[C@H](C)[C@H](O)[C@@](O)([C@H](O)[C@@]7(COC(=O)c8ccccc8)O[C@H]7[C@H]3[C@H]1O5)[C@@H]64)O2	-	NL4-3	EC50	luciferase	MT-4	0.00099 µM
Cc1nc(C)c([C@H](OC(C)(C)C)C(=O)O)c(N2CCC(C)(C)CC2)c1-c1ccc(OCC2CCC(C)CC2)cc1	-	NL4-3	EC50	luminescence	MT-2	≤0.1 µM
COC(=O)[C@@H](NP(=O)(OC[C@H]1C=C[C@@H](n2cnc3c(N)ncnc32)C1)Oc1ccccc1)C(C)C	-	IIIB	EC50	cytopathic effect / trypan blue	MT-4	1.09 µM
CC(C)OC(=O)c1cc(NC(=S)OC(C)C)ccc1Cl	-	-	EC50	-	-	0.03 µM
Clc1cc(CN2CCCNCCNCCCNCC2)c(Cl)cc1CN1CCCNCCNCCCNCC1	-	AOM	EC50	cytopathic effect / MTT	MT-4	0.086 µg/mL
NC(=O)c1cn([C@H]2CS[C@H](CO)O2)cn1	-	RF	EC50	cytopathic effect / XTT	CEM + CEM-SS	9 µg/mL
CC1(C)C2CC[C@]3(C)C(C(=O)C=C4C5C[C@@](C)(C(=O)Nc6ccccn6)CC[C@]5(C)CC[C@]43C)[C@@]2(C)CC[C@@H]1O[C@H]1O[C@H](C(=O)Nc2ccccn2)[C@@H](O)[C@H](O)[C@H]1O[C@@H]1O[C@H](C(=O)Nc2ccccn2)[C@@H](O)[C@H](O)[C@H]1O	-	EVK	EC50	p24 / antigen	MT-4	3100 µg/mL
COCc1ccnc(Nc2ccc(Cl)c(OCC=C(C)C)c2)n1	-	IIIB	EC50	cytopathic effect / MTT	MT-2	>25 µM
CCc1cn([C@H]2C=C[C@@H](CO)O2)c(=O)[nH]c1=O	-	LAV	EC50	RT activity	PBMC	75.7 µM
CC(C)Nc1cccnc1N1CCN(C(=O)c2cc3cc(NS(C)(=O)=O)ccc3[nH]2)CC1	-	-	EC50	-	-	0.005 µM
COc1cc(CN2CCCNCCNCCCNCC2)c(OC)cc1CN1CCCNCCNCCCNCC1	AMD3100-resistant	NL4-3	EC50	cytopathic effect / MTT	MT-4	0.24 µg/mL
COC(=O)[C@@H](Cc1c[nH]c2ccccc12)NP(=O)(OC[C@H]1C=C[C@@H](n2cnc3c(N)ncnc32)C1)Oc1ccccc1	-	IIIB	EC50	cytopathic effect / MTS	MT-4	0.16 µM
NC(=O)NO	-	IIIB	EC50	p24	PBMC	~50 µM
Nc1ccn([C@H]2CC[C@@H](CO)O2)c(=O)n1	-	LAV	EC50	RT activity	PBMC	0.011 µM
C1CNCCNCCCN2CCCNCCNCCCN(C1)CC2	AMD3100-resistant	NL4-3	EC50	cytopathic effect / MTT	MT-4	>50 µg/mL
C[n+]1ccc(C2=C3C=CC(=N3)C(c3ccc(-c4ccccc4)cc3)=C3C=CC(=C(c4cc[n+](C)cc4)C4=NC(=C(c5ccc(-c6ccccc6)cc5)C5=CC=C2[NH2+]5)C=C4)[NH2+]3)cc1.[Cl-]	-	LAV	EC50	RT activity	PBMC	<1 µM
Cc1ccnc2c1NC(=O)c1cccnc1N2C1CC1	-	LAI	EC50	fluorescence	CEM	0.105 µM
COC(=O)[C@H](Cc1ccc(OC(C)(C)C)cc1)NP(=O)(OC[C@H]1C=C[C@@H](n2cnc3c(N)ncnc32)C1)Oc1ccccc1	-	IIIB	EC50	cytopathic effect / MTS	MT-4	<1 µM
CC(C)=CCN1c2cc(Cl)cc3[nH]c(=S)n(c23)C[C@@H]1C	RT-M41L T215Y K101E	-	EC95	-	MT-4	1.5 µM
Oc1cccc(-c2c3nc(c(-c4cccc(O)c4)c4ccc([nH]4)c(-c4cccc(O)c4)c4nc(c(-c5cccc(O)c5)c5ccc2[nH]5)C=C4)C=C3)c1	-	LAV	EC50	RT activity	PBMC	5.37 µM
c1ccc(-c2cc(CN3CCCNCCNCCCNCC3)cc(CN3CCCNCCNCCCNCC3)c2)cc1	AMD3100-resistant	NL4-3	EC50	cytopathic effect / MTT	MT-4	0.42 µg/mL
Oc1ccccc1-c1c2nc(c(-c3ccccc3O)c3ccc([nH]3)c(-c3ccccc3O)c3nc(c(-c4ccccc4O)c4ccc1[nH]4)C=C3)C=C2	-	LAV	EC50	RT activity	PBMC	3.1 µM
c1ccc(-c2cc(CN3CCCNCCNCCCNCC3)ccc2CN2CCCNCCNCCCNCC2)cc1	-	168.10	EC50	cytopathic effect / MTT	SupT1 + Sup-T1	0.24 µg/mL
C[C@H](NP(=O)(OC[C@H]1C=C[C@@H](n2cnc3c(N)ncnc32)C1)Oc1ccccc1)C(=O)OC(C)(C)C	-	IIIB	EC50	cytopathic effect / trypan blue	MT-4	8.19 µM
COC(=O)c1cc(CN2CCCNCCNCCCNCC2)ccc1CN1CCCNCCNCCCNCC1	-	168.10	EC50	cytopathic effect / MTT	SupT1 + Sup-T1	1.2 µg/mL
COC(=O)C[C@@H](NP(=O)(OC[C@H]1C=C[C@@H](n2cnc3c(N)ncnc32)C1)Oc1ccccc1)C(=O)OC	-	IIIB	EC50	cytopathic effect / trypan blue	MT-4	3.9 µM
O=[N+]([O-])c1cc(CN2CCCNCCNCCCNCC2)cc(CN2CCCNCCNCCCNCC2)c1	AMD3100-resistant	NL4-3	EC50	cytopathic effect / MTT	MT-4	3 µg/mL
Nc1ccn([C@H]2C=C[C@@H](CO)C2)c(=O)n1	-	LAV	EC50	RT activity	PBMC	>100 µM

Again, the opening 3 rows:

O=c1ccn([C@H]2C=C[C@@H](CO)O2)c(=O)[nH]1 ; strain: LAV ; measure: EC50 ; read by: RT activity ; cell line: PBMC ; result: 79.2 µM
COC(=O)[C@H](CCCCN)NP(=O)(OC[C@H]1C=C[C@@H](n2cnc3c(N)ncnc32)C1)Oc1ccccc1 ; strain: IIIB ; measure: EC50 ; read by: syncytia ; cell line: CEM ; result: 25 µM
C=C(C)[C@]12C[C@@H](C)[C@@]34OC5(CCCCCCC[C@H](C)[C@H]6[C@H](C)[C@H](O)[C@@](O)([C@H](O)[C@@]7(COC(=O)c8ccccc8)O[C@H]7[C@H]3[C@H]1O5)[C@@H]64)O2 ; strain: NL4-3 ; measure: EC50 ; read by: luciferase ; cell line: MT-4 ; result: 0.00099 µM